## Sequence variants of PSTVd loop 6 after infection

PSTVd intermediate strain, loop 6: wild type UGACCGCGAG, pool pattern UNNNCGNNNG; upper and lower strand joined, each 5' to 3', the first 5 letters being the upper strand, closing pairs included.

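Three N. benthamiana plants were inoculated with the whole mutant pool. Samples came from the inoculated region at 5 days, the leaf margin at 10 and upper systemic leaves at 12.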

Values are reads per thousand in the sample; higher means more abundant, 0 means not found. Each value is the mean of three plants. "Pool" is the share in the plasmid pool used as inoculum, on the same scale. The inoculated region was read from the minus strand, the other sites from the plus strand. IR is the inoculated region, LM the leaf margin, Sys the systemic leaves.

| # | sequence | pool | IR | LM | Sys |
|---|---|---|---|---|---|
| 1 | UCUGCGCGUG | 0.261 | 0.0764 | 0.00920 | 0 |
| 2 | UCAUCGCCUG | 0.170 | 0.101 | 0.00920 | 0 |
| 3 | UAUACGAUAG | 0.340 | 0.112 | 0.0541 | 0 |
| 4 | UGGACGAGAG | 0.275 | 0.728 | 0.144 | 0.00684 |
| 5 | UGCGCGCGGG | 0.222 | 0.101 | 0.0232 | 0 |
| 6 | UCAGCGUGGG | 0.144 | 0.0771 | 0.00773 | 0 |
| 7 | UGCGCGUUCG | 0.183 | 0.0589 | 0 | 0 |
| 8 | UAUGCGCGUG | 0.144 | 0.108 | 0.0169 | 0 |
| 9 | UGGGCGACCG | 0.118 | 0.0353 | 0 | 0 |
| 10 | UUAUCGCGAG | 0.196 | 0.285 | 0.206 | 0.102 |
| 11 | UUCACGGCAG | 0.183 | 0.720 | 0.0789 | 0 |
| 12 | UUCACGAAGG | 0.222 | 0.0662 | 0 | 0 |
| 13 | UCCACGAGCG | 0.222 | 0.143 | 0.0184 | 0 |
| 14 | UGAGCGCGGG | 0.248 | 0.113 | 0.00920 | 0 |
| 15 | UGCUCGGAUG | 0.196 | 0.0714 | 0.0261 | 0.00599 |
| 16 | UUCUCGGACG | 0.327 | 0.606 | 0.0591 | 0 |
| 17 | UGGACGCACG | 0.261 | 0.125 | 0 | 0 |
| 18 | UGUUCGGAGG | 0.157 | 0.0540 | 0.0184 | 0 |
| 19 | UUCCCGGUAG | 0.353 | 0.0896 | 0.0169 | 0 |
| 20 | UCCUCGCAUG | 0.105 | 0.0835 | 0.0169 | 0 |
| 21 | UUGCCGCAAG | 0.118 | 0.125 | 0 | 0 |
| 22 | UCACCGUAGG | 0.235 | 0.0426 | 0.0155 | 0 |
| 23 | UGGACGACUG | 0.288 | 0.125 | 0 | 0.00684 |
| 24 | UGACCGCUGG | 0.0915 | 0.0833 | 0.210 | 0.00684 |
| 25 | UUAACGCUCG | 0.301 | 0.524 | 0.108 | 0.0196 |
| 26 | UGAGCGGGGG | 0.157 | 0.643 | 0.0744 | 0.0472 |
| 27 | UCCCCGGGAG | 0.327 | 0.0704 | 0.00773 | 0 |
| 28 | UCUACGAGAG | 0.275 | 0.137 | 0.0552 | 0.00684 |
| 29 | UCACCGGCCG | 0.144 | 0.137 | 0.0232 | 0 |
| 30 | UUAACGUCAG | 0.327 | 0.673 | 0.118 | 0 |
| 31 | UACACGACCG | 0.170 | 0.0536 | 0 | 0 |
| 32 | UACACGAUAG | 0.196 | 0.0829 | 0.0387 | 0 |
| 33 | UCUUCUCGAG | 0.0131 | 0.00599 | 0.00841 | 0 |
| 34 | UAGGCGCAGG | 0.248 | 0.119 | 0 | 0 |
| 35 | UCAUCGCAAG | 0.0915 | 0.158 | 0 | 0 |
| 36 | UUAUCGAGAG | 0.288 | 0.652 | 0.117 | 0 |
| 37 | UAUGCGCUGG | 0.183 | 0.0886 | 0.00773 | 0 |
| 38 | UAAUCGGCAG | 0.301 | 0.608 | 0.104 | 0 |
| 39 | UCAUCGUUUG | 0.209 | 0.0842 | 0 | 0 |
| 40 | UUGUCGCAUG | 0.222 | 0.145 | 0.00773 | 0 |
| 41 | UAAUCGCCGG | 0.301 | 0.0712 | 0.0155 | 0 |
| 42 | UCAGCGUUGG | 0.680 | 0.101 | 0.00773 | 0.0136 |
| 43 | UUCCCAUGGG | 0.0131 | 0 | 0 | 0 |
| 44 | UACGCGAGCG | 0.222 | 0.0940 | 0 | 0 |
| 45 | UUUGCGAACG | 0.183 | 0.0954 | 0.00773 | 0 |
| 46 | UCCGCGUCGG | 0.235 | 0.0880 | 0 | 0 |
| 47 | UUUUCGCGCG | 0.157 | 0.0715 | 0 | 0 |
| 48 | UACGCGGAAG | 0.0915 | 0.108 | 0.0247 | 0 |
| 49 | UUAUCGGCAG | 0.288 | 0.596 | 0.116 | 0 |
| 50 | UCGGCGAGUG | 0.288 | 0.101 | 0 | 0 |
| 51 | UAGUCGGGAG | 0.261 | 0.650 | 0.0906 | 0 |
| 52 | UACGCGGUCG | 0.235 | 0.0531 | 0.00773 | 0 |
| 53 | UCGUCGGCCG | 0.144 | 0.0706 | 0 | 0 |
| 54 | UAACCGUUCG | 0.209 | 0.114 | 0.0368 | 0 |
| 55 | UGUGCGCCCG | 0.248 | 0.0713 | 0 | 0 |
| 56 | UGCCCGCUGG | 0.0654 | 0.0821 | 0 | 0 |
| 57 | UGCUCGUGCG | 0.261 | 0.0768 | 0.00773 | 0 |
| 58 | UCGUCGCCGG | 0.196 | 0.0541 | 0.0169 | 0 |

5 of these entries, quoted again:

sequence	pool	IR	LM	Sys
UUUUCGCGCG	0.157	0.0715	0	0
UUGUCGCAUG	0.222	0.145	0.00773	0
UCCUCGCAUG	0.105	0.0835	0.0169	0
UGUUCGGAGG	0.157	0.0540	0.0184	0
UACACGACCG	0.170	0.0536	0	0

For reference, wild type rose from 20.7 per thousand in the pool to 195, 198, 203 (inoculated region), 629, 591, 734 (leaf margin) and 942, 870, 868 (systemic leaves). Sequences that differ at fixed positions probably stem from PCR or sequencing errors, and defective variants can be carried along by functional ones. With 36,220-57,551 reads a sample, very low values are single reads.

Reference: Wu et al. 2024, doi:10.1371/journal.ppat.1012142.